# Reference: US20120207760A1, “Compositions and Methods for the Therapy and Diagnosis of Influenza” (THERACLONE SCIENCES, published 2012)
# B1: TCN-545 (5082_I15) (antibody, V domains shown)
# VH: QVQLQQWGAGLLKPSETLSLSCAVFGGSFSDYYWTWIRQPPGKGLEWIGEIKHSGRTNYNPSLESRVTISVDTSKNQFSLKLSSVTAADTAIYYCARGTDPDTEGYCRSGSCSAFDFWGQGTLVTVSS
# VL: EIVLTQSPGTLSLSPGERATLSCRASHFVNYRSLAWYQQTPGQVPRLLIYGASTRATGIPDRFSGSGSGTDFTLTISRLEPEDFAVYFCQQYGGSPRYTFGQGTRLEIK
# B2: TCN-526 (5084_C17) (antibody, V domains shown)
# VH: EVLMVESGGGLVQPGGSVRLSCVASGFSFSSHWMTWVRQAPGKGLEWVANIEDDGGDKYYVDSVKGRFIISRDNAKNSVYLQMNSLRAEDTAVYFCARGSGSSDRSDYDPHYYYYLDVWGKGATVTVSS
# VL: DIQLTQSPSSLSASVGDRVTITCRASQSISRYLNWYQQKPGKAPKLLLFAASTLLDGVPSRFSGSGSGTDFTLTISSLQPEDFATYYCQRNHSPSWTFGQGTRVEIK
# B3: TCN-529 (5297_H01) (antibody, V domains shown)
# VH: QITLRESGPTLVKPTQTLTLTCTFSGFSLSTNGVNVGWIRQPPGKALEWLALIYWDDDKRYSPSLKRRLTITKDTSKNQVVLTLTNMDPVDTATYYCAHRPDFYGDFEYWGPGTLVTVSS
# VL: QSALTQPASVSGSPGQSITISCTGSSSDIGGYNYVSWYQQHPGKAPKLMIYDVNNRPSGVSNRFSGSKSGNTASLTISGLQTDDEADYYCGSYTGSPHYVFGTGTKVTVL
# B4: TCN-544 (5082_A19) (antibody, V domains shown)
# VH: QVQLQESGPGLVKPSETLSLTCTVSRGSIGHYFWSWIRQPPGKGLEWIGYISYSGSTKYNPSLRSRVTISVDTSKNQFSLNLNSVTATDTALYYCAREDYDILTGAGPGMEVWGQGTTVTVSS
# VL: QSMLTQPPSASGTPGQRVTISCSGSSSNIGSNTVNWFKHLPGTAPKLLIYRNDLRPSGVPDRFSGSKSGTSASLAISGLQSEDEADYYCATWDDSLNGFYVFGTGTKVTVL
# B5: TCN-538 (3206_O17) (antibody, V domains shown)
# VH: QITLKESGPTLVKPTQTLTLTCVFSGFSLSITGVRVGWIRQPPGKALEWLALISWDDEKHYSPSLQSRLTITKDTSKNQVVLTMTNLDPVDTATYYCARSTDRGHVLRYFGWMLPGDAFDVWGQGTMVTVSS
# VL: DIVMTQSPDFLPVSLGERATINCKSSQRVLYSSNNKNYLAWYQLKPGQPPKLIIYWASTRESGVPDRFSGSGSGTEFTLTISSLQAEDVAVYYCQQYYSRPYTFGQGTKLEIK
# B6: TCN-555 (5246_L16) (antibody, V domains shown)
# VH: QVQLVQSGAEVKRPGSSVKVSCTASGGIFRKNAISWVRQAPGQGLEWMGGIIAVFNTANYAQKFQNRVKITADESGNTAYMELSSLTSDDTAVYYCASHPKYFYGSGSYPDFWGQGTLVTVSS
# VL: QSALTQPRSVSGSPGQSITISCTGGSSDIGASNSVSWYQQHPGKAPKLVIFDVTERPSGVPHRFSGSKSGNTASLTVSGLQPDDEADYFCCAYGGKYLVVFGGGTKVTVL
# B7: TCN-539 (5056_A08) (antibody, V domains shown)
# VH: QVQLVESGGGVVQPGRSLRLSCAASEITFITYAMHWVRQAPGKGLEWVALISDDGSNKFYADSVKGRFTISRDNSKNTLYLQMNSLRAEDTAAYYCAREGVYFDSGTYRGYFDYWGQETLVTVSS
# VL: EIVLTQSPATLSLSPGERATLSCRASQSVSSYLAWYQQKPGQAPRLLIYDASNRATGIPARFSGSGSGTDFTLTISSLEPEDFAVYYCQQRSHWPPITFGQGTRLEIK
# B8: TCN-537 (3194_D21) (antibody, V domains shown)
# VH: QVQLQQWGSGLLKPSETLSLTCAVYGGSFRDDYWTWIRQPPGKGLEWIGEINHSGRTNYNPSLKSRVTISVDTSLKQFSLKVISVTAADTAVYYCARGTSHVSRYFDWLPPTNWFDPWGQGTQVTVSS
# VL: DIVLTQSPGTLSLSPGERATLSCRASQSVSSSYLAWYQQKPGQAPRLVMYGAATRATGIPDRFSGSGSGPDFTLTISRLEPEDFAMYYCQQYGNSPITFGQGTRLEIK
# Molecular target: recombinant soluble homotrimeric HA of A/Wisconsin/67/05 (H3N2) (Influenza A virus A/Wisconsin/67/05 …)
# Assay: not given
row,Binder,Trimeric HA Binding: RLU [RLU]
1,B1,575
2,B2,49300
3,B3,51600

# Molecular target: recombinant soluble homotrimeric HA of A/Solomon Islands/3/06 (H1N1) (Influenza A virus A/Solomon …)
# Assay: microarray, BCC supernatant IgG, trimeric HA
row,Binder,Trimeric HA Binding: RLU [RLU]
1,B4,179
2,B2,341

# Molecular target: recombinant soluble homotrimeric HA of A/chicken/Vietnam/NCVD-016/08 (H5N1) (Influenza A virus …)
# Assay: microarray, BCC supernatant IgG, trimeric HA
row,Binder,Trimeric HA Binding: RLU [RLU]
1,B4,272
2,B1,392
3,B3,410

# Molecular target: hemagglutinin (HA) of influenza A/Wisconsin/67/05 H3N2 (Influenza A virus A/Wisconsin/67/2005 …)
# Assay: ELISA, inactivated whole virions coated; transfection supernatant set 5
row,Binder,OD450 [OD450]
1,B5,0.12
2,B6,0.13
3,B7,0.13
4,B8,0.11
